Pooled drug test results. Numbers come from NIAID ChemDB, via PubChem.

Common to all: cytotoxicity tests; cells: MDCK; endpoint: CC50

CCn is the concentration with n% toxicity to the cells. Rows are shuffled and stem from different studies. a–b is a range or a potency band.

{"SMILES": "Cc1cccc(C(=S)NC[C@@]2(C)C[C@H](O)CC(C)(C)C2)c1", "result": "35 µg/mL"}
{"SMILES": "Nc1nc(Cl)cc(NCC2(CO)CC2)n1", "result": ">440 µM"}
{"SMILES": "O=C(N[C@H]1CCC23CCC2N(Cc2ccccc2)C3C1)c1cc(Cl)ccc1O", "result": "100 µg/mL"}
{"SMILES": "CC1(C)C[C@@H](O)C[C@](C)(CNC(=S)c2cccc(F)c2)C1", "result": "70 µg/mL"}
{"SMILES": "CC(C)CS[C@@H]1C[C@H](n2cnc3c(N)ncnc32)[C@@H](O)[C@H]1O", "result": ">200 µg/mL"}
{"SMILES": "Cc1ccc(C(=S)NC[C@@]2(C)C[C@@H](O)CC(C)(C)C2)cc1", "result": "25 µg/mL"}
{"SMILES": "CCC(C)N1C2CCC23CC[C@@H](NC(=O)c2cc(C)ccc2O)CC13", "result": "100 µg/mL"}
{"SMILES": "CC1(C)C[C@H](O)C[C@](C)(CNC(=S)c2cccc(C(F)(F)F)c2)C1", "result": "5 µg/mL"}
{"SMILES": "C/C(=C\\CCC1(C)C=Cc2cc(O)cc(C)c2O1)CC/C=C(\\C)CC[C@@H](C)C(C)(C)O", "result": "24 µM"}
{"SMILES": "CC(C)Oc1ccccc1CNC(=O)c1ccc2cnccc2n1", "result": "20 µM"}
{"SMILES": "N#Cc1cc(C#N)c2[nH]c3ccccc3n2c1=O", "result": "50 µg/mL"}
{"SMILES": "Cc1ccc(O)c(C(=O)N[C@@H]2CCC34CCC3N(C)C4C2)c1", "result": "100 µg/mL"}
{"SMILES": "N#Cc1cc(NC(=O)c2ccccc2)c(=O)n2c1[nH]c1ccccc12", "result": "10 µg/mL"}
{"SMILES": "Cc1ccc(O)c(C(=O)N[C@H]2CCC34CCC3N(C)C4C2)c1", "result": "100 µg/mL"}
{"SMILES": "CCOC(=O)c1cc(CC(=O)c2ccccc2)c(=O)n2c1sc1ccccc12", "result": "40 µg/mL"}
{"SMILES": "Cc1ccc(O)c(C(=O)NCCN2[C@@H](C)CC[C@@H]3CCCC[C@@H]32)c1", "result": ">100 µg/mL"}
{"SMILES": "CCOC(=O)c1cc(CC(=O)c2ccccc2)c(=O)n2c1oc1ccccc12", "result": "40 µg/mL"}
{"SMILES": "C[C@@H]1CCC[C@H](C)N1CCNC(=O)c1cc(Cl)ccc1O", "result": "30 µg/mL"}
{"SMILES": "CCC(CC)[C@H](NC(C)=O)[C@@H]1[C@H](O)[C@@H](C(=O)O)C[C@H]1N=C(N)N", "read by": "neutral red", "result": ">1000 µM"}
{"SMILES": "COc1cc(OC)cc([C@H]2c3cc(/C=C/c4cc(O)cc(O)c4)ccc3O[C@@H]2c2ccc(O)cc2)c1", "read by": "MTT", "result": "12.74 µg/mL"}
{"SMILES": "Cc1ccc(O)c(C(=O)NCCN2[C@H](C)CC[C@@H]3CCCC[C@@H]32)c1", "result": "35 µg/mL"}
{"SMILES": "COc1ccccc1CNC(=O)C1=Cc2ccncc2CC1", "result": "169 µM"}
{"SMILES": "CCOC(=O)c1cc(C#N)c2[nH]c3ccccc3n2c1=O", "result": "176 µg/mL"}
{"SMILES": "COc1cc(NCC2(CO)CCC2)nc(N)n1", "result": "42–100 µM"}
{"SMILES": "CC1(C)C[C@H](O)C[C@](C)(CNC(=S)c2ccccc2O)C1", "result": "40 µg/mL"}
{"SMILES": "CC(C)C1CC(CO)(CNc2cc(Cl)nc(N)n2)C1", "result": "2.5–6.3 µM"}
{"SMILES": "CC1(C)C[C@H](O)C[C@](C)(CNC(=S)c2cccc(F)c2)C1", "result": "20 µg/mL"}
{"SMILES": "COc1c(Cl)nc(N)nc1NCC1(CO)CC(CCc2ccccc2)C1", "result": "0.13–0.27 µM"}
{"SMILES": "N#Cc1cc(C(=O)O)c(=O)n2c1[nH]c1ccccc12", "result": "200 µg/mL"}